Data reported in patent publication US9161533B2, “Plant pathogen resistance” (priority 2007, dated 2015).

Assay: GC-MS level of azelaic acid in petiole exudates
Design: species or system Arabidopsis
Details: Col-Pex, PmaDG6, 72 hrs

Structure (SMILES): O=C(O)CCCCCCCC(=O)O [azelaic acid]
- azelaic acid level in pathogen-induced exudates: 31.6 µM
